Anti-infective test results gathered from many reports (values: NIAID ChemDB through PubChem).

Common to all: tests in culture; species: Aspergillus fumigatus; read-out: MIC50

Neighbouring rows are from separate reports.

| compound | strain | method | conditions | result |
|---|---|---|---|---|
| COc1ccc(C=O)cc1OCC(O)(Cn1cncn1)c1ccc(F)cc1F | ATCC 46645 | broth dilution |  | 128 µg/mL |
| CCC(C)n1ncn(-c2ccc(N3CCN(c4ccc(OC[C@H]5CO[C@](Cn6cncn6)(c6ccc(Cl)cc6Cl)O5)cc4)CC3)cc2)c1=O |  |  |  | 0.05 µg/mL |
| O=C1OCC(c2cccs2)=C1c1ccc(OCC(O)(Cn2cncn2)c2ccc(F)cc2F)cc1 | ATCC 46645 | broth dilution |  | 8 µg/mL |
| C[C@H]1[C@H](O)[C@@H](C)/C=C/C=C/C=C/C=C/C=C/C=C/C=C/[C@H](O[C@@H]2O[C@H](C)[C@@H](O)[C@H](N)[C@@H]2O)C[C@@H]2O[C@](O)(C[C@@H](O)C[C@@H](O)CC[C@H](O)[C@@H](O)C[C@@H](O)CC(=O)O[C@H]1C)C[C@H](O)[C@H]2C(=O)O | 150 clinical isolates |  |  | 1 µg/mL |
| C[C@@H](c1ncncc1F)[C@](O)(Cn1cncn1)c1ccc(F)cc1F | 62 isolates |  |  | 0.25 µg/mL |
| O=C1O/C(=C\c2ccc(OCC(O)(Cn3cncn3)c3ccc(F)cc3F)cc2)C(c2ccc(F)cc2F)=C1c1ccc(Cl)cc1 | ATCC 46645 | broth dilution |  | 4 µg/mL |
| C[C@H]1[C@H](O)[C@@H](C)/C=C/C=C/C=C/C=C/C=C/C=C/C=C/[C@H](O[C@@H]2O[C@H](C)[C@@H](O)[C@H](N)[C@@H]2O)C[C@@H]2O[C@](O)(C[C@@H](O)C[C@@H](O)CC[C@H](O)[C@@H](O)C[C@@H](O)CC(=O)O[C@H]1C)C[C@H](O)[C@H]2C(=O)O | 62 isolates |  |  | 0.25 µg/mL |
| CCC(C)n1ncn(-c2ccc(N3CCN(c4ccc(OC[C@H]5CO[C@](Cn6cncn6)(c6ccc(Cl)cc6Cl)O5)cc4)CC3)cc2)c1=O | 35 isolates |  |  | 0.25 µg/mL |
| COc1cc(C2=C(c3ccc(F)cc3)COC2=O)ccc1OCC(O)(Cn1cncn1)c1ccc(F)cc1F | ATCC 46645 | broth dilution |  | 8 µg/mL |
| C[C@H]1[C@H](O)[C@@H](C)/C=C/C=C/C=C/C=C/C=C/C=C/C=C/[C@H](O[C@@H]2O[C@H](C)[C@@H](O)[C@H](N)[C@@H]2O)C[C@@H]2O[C@](O)(C[C@@H](O)C[C@@H](O)CC[C@H](O)[C@@H](O)C[C@@H](O)CC(=O)O[C@H]1C)C[C@H](O)[C@H]2C(=O)O | 3 clinical isolates |  |  | 1 µg/mL |
| CC(=O)N1CCN(c2ccc(OC[C@H]3CO[C@](Cn4ccnc4)(c4ccc(Cl)cc4Cl)O3)cc2)CC1 | 25 isolates |  |  | 8 µg/mL |
| C[C@@H](c1ncncc1F)[C@](O)(Cn1cncn1)c1ccc(F)cc1F | 35 isolates |  |  | 0.5 µg/mL |
| CCC(C)CC(C)CCCCCCCCC(=O)N[C@H]1C[C@@H](O)[C@H](NCCN)NC(=O)[C@@H]2[C@@H](O)CCN2C(=O)[C@H]([C@H](O)CCN)NC(=O)[C@H]([C@H](O)[C@@H](O)c2ccc(O)cc2)NC(=O)[C@@H]2C[C@@H](O)CN2C(=O)[C@H]([C@@H](C)O)NC1=O | 25 isolates |  |  | 0.5 µg/mL |
| C[C@@H](c1ncncc1F)[C@](O)(Cn1cncn1)c1ccc(F)cc1F | 25 isolates |  |  | 0.25 µg/mL |
| CCN1CCC(O)(/C=C/c2ccc(Cl)cc2)C(C(=O)/C=C/c2ccc(Cl)cc2)C1 | 28 strains (itraconazole-resistant) |  |  | 5.84 µg/mL |
| CCCCCCCCOc1ccc(-c2ccc(C(=O)NC3CC(NCCN)CNC(=O)[C@@H]4[C@@H](O)[C@@H](C)CN4C(=O)[C@@H](CO)NC(=O)[C@H]([C@H](O)Cc4ccccc4)NC(=O)[C@@H]4C[C@@H](O)CN4C(=O)[C@H]([C@@H](C)O)NC3=O)cc2)cc1 | 25 isolates |  |  | 0.25 µg/mL |
| COc1cc(/C=C2\SC(=S)NC2=O)ccc1OCC(O)(Cn1cncn1)c1ccc(F)cc1F | ATCC 46645 | broth dilution |  | 16 µg/mL |
| Nc1ncccc1-c1cc(Cc2ccc(COc3ccccn3)cc2)no1 | IFM 51126 | broth dilution | 30% human serum | 1 µg/mL |
| C[C@H]1[C@H](O)[C@@H](C)/C=C/C=C/C=C/C=C/C=C/C=C/C=C/[C@H](O[C@@H]2O[C@H](C)[C@@H](O)[C@H](N)[C@@H]2O)C[C@@H]2O[C@](O)(C[C@@H](O)C[C@@H](O)CC[C@H](O)[C@@H](O)C[C@@H](O)CC(=O)O[C@H]1C)C[C@H](O)[C@H]2C(=O)O |  |  |  | 0.5 µg/mL |

MIC50, MIC90 and the like: level of inhibition, or share of isolates inhibited. Blank or dashed fields: not listed here.